Results published in patent US20210128567A1, “Compositions and Methods for Cognitive, Immune and Digestive Support in Patients with Autism Spectrum Disorder” (FLAASK, LLC, priority 2017, published 2021).

Tested on: children with confirmed ASD diagnoses
Assay: Outcome of therapies received prior to the subject treatment, as reported by parents
Format: in vivo, human
Conditions: patient one, given together

## Viferon: drug the child was treated by, with Valtrex, prior to the treatment
  result of prior treatment by Valtrex and Viferon: they are getting sick more rarely, learned to swim and to communicate through PECS cards
